Only a part is listed here, and it is no random draw. The source made the active and inactive calls.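 The calls were made as follows: active = activation above a cutoff set at the mean of all screened compounds plus 3 SD (cut at about 10% in these data); inactive = the rest.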

Experimental findings from PubChem BioAssay AID687014 (The Scripps Research Institute Molecular Screening Center, 2013) are described below.

In this test the test system is Nuclear hormone receptor DAF-12 (Heterodera glycines), GAL4 fusion. Nature of the test: H. glycines DAF-12 receptor agonists, primary screen, cell-based, luminescence, HEK293, GAL4 fusion, UAS-luciferase (AID 687014).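 Also: 0% = DMSO wells and 100% = sodium butyrate wells.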 Conditions: HEK293 GAL4-hgDAF12 UAS-luciferase reporter, agonist luminescence; at 6.8 µM; active compounds read high; normalized to butyrate control. In general terms: In a reporter assay the amount or activity of a reporter protein is the signal.
`O=C(NCC1(N2CCCCC2)CCCCC1)c1cccc(C(F)(F)F)c1`: the activation was inactive: 2%.
The figure for `COc1cc(C(=O)NCC2(N3CCCCC3)CCCCC2)ccc1OC(F)F` is inactive: -1.2%; for `O=C(NCC1(N2CCOCC2)CCCCC1)c1cc(=O)[nH]c2ccccc12` it is inactive: -1.8%; for `CN1CCN(CCOC(=O)C(O)(c2ccccc2)c2ccccc2)CC1` it is inactive: 2.62%.
The figure for `CC(C)c1ccc(C(=O)NCC2(N3CCOCC3)CCCCC2)cc1` is inactive: -2.88%; for `COc1ccc(NC2CCN(C(=O)OC(C)(C)C)CC2)cc1` it is inactive: 2.89%.
For `CCCCn1nnnc1C(c1cccc2ccccc12)N1CCC(n2c(=O)[nH]c3ccccc32)CC1` (stereo not given) the value was inactive: -2.99%; for `O=C(NCC1(N2CCCCC2)CCCCC1)c1ccc(OC(F)F)cc1`, inactive: 1.52%; for `CC(C)(C)n1nnnc1C(c1ccccc1OC(F)(F)F)N1CCC(n2c(=O)[nH]c3ccccc32)CC1` (stereo not given), inactive: 3.6%.
`O=c1[nH]c2ccccc2n1C1CCN(C(c2ccccc2OC(F)(F)F)c2nnnn2C2CCCC2)CC1` (stereo not given): the activation is inactive: -0.6%.
With `N#CC1(Nc2ccccc2)CCN(CCc2ccccc2)CC1`, the activation is inactive: 2.22%.
The figure for `CCN1CCC(Nc2ccc(Cl)cc2)CC1` is inactive: 2.26%.
The figure for `CSc1ccc(C(=O)NCC2(N3CCOCC3)CCCCC2)cc1` is inactive: -0.97%; for `O=C(NCC1(N2CCCCC2)CCCCC1)c1cccc([N+](=O)[O-])c1` it is inactive: 2.96%.
For `CN1CCC(Nc2cccc(F)c2)CC1` the value was inactive: 0.3%.
As to `O=C(NCC1(N2CCCCC2)CCCCC1)c1cncc(Br)c1`, the activation is inactive: 4.48%.
For `COc1ccc(C(c2nnnn2C2CCCC2)N2CCC(n3c(=O)[nH]c4ccccc43)CC2)cc1` (stereo not given), the activation was inactive: -0.03%.
For `CCCOc1ccc(C(=O)NCC2(N(C)C)CCCCC2)cc1OC` the value was inactive: -1.34%; for `Cc1ccc(C(=O)NCC2(N(C)C)CCCCC2)o1`, inactive: 0.67%; for `CC(C)c1ccc(NC2CCN(C(=O)OC(C)(C)C)CC2)cc1`, inactive: 7.13%.
The figure for `CN(C)c1cccc(C(=O)NCC2(N3CCCCC3)CCCCC2)c1` is inactive: -1.86%.
The figure for `COc1ccc(CN(CCCl)CCCl)cc1Cl` is inactive: -5.72%; for `COC(=O)C1(Nc2ccccc2)CCN(Cc2ccccc2)CC1` it is inactive: -0.05%.
Consider `CCC(c1nnnn1C(C)(C)C)N1CCC(n2c(=O)[nH]c3ccccc32)CC1` (stereo not given), for which the activation was inactive: -0.77%.
For `O=C(NCC1(N2CCOCC2)CCCCC1)c1cc(F)c(F)cc1Cl`, the activation is inactive: 0.24%.
The figure for `COc1cc(OC)c(C(=O)NCC2(N(C)C)CCCCC2)cc1OC` is inactive: -0.15%.
For `CCCCn1nnnc1C(c1ccnc2ccccc12)N1CCC(n2c(=O)[nH]c3ccccc32)CC1` (stereo not given) the value was inactive: -5.11%; for `Cc1cc(C)cc(N(C(=O)c2ccccc2)C2CCN(C(=O)OC(C)(C)C)CC2)c1`, inactive: -1.03%.
For `O=C(NCC1(N2CCCCC2)CCCCC1)c1ccc(Cl)nc1` the value was inactive: 0.8%; for `O=c1[nH]c2ccccc2n1C1CCN(C(c2ccccc2OC(F)(F)F)c2nnnn2C2CCCCC2)CC1` (stereo not given), inactive: 1.31%; for `O=C(NCC1(N2CCOCC2)CCCCC1)c1cc2ccccc2o1`, inactive: -1.75%.
On to `COc1ccc(Cl)cc1C(=O)NCC1(N2CCOCC2)CCCCC1`, for which the activation was inactive: 0.51%.
Turning to `N#CC1(Nc2ccccc2)CCN(Cc2ccccc2)CC1`, the activation was inactive: 0.38%.
The figure for `O=C(NCC1(N2CCCCC2)CCCCC1)c1ccc(Cl)s1` is inactive: -1.52%; for `O=C(OC1CN2CCC1CC2)C1c2ccccc2Oc2ccccc21` (stereo not given) it is inactive: -1.67%; for `O=c1[nH]c2ccccc2n1C1CCN(C(c2cc3ccccc3o2)c2nnnn2C2CCCCC2)CC1` (stereo not given) it is inactive: 1.07%.
The figure for `CCCCn1nnnc1C(c1ccc(OC)cc1)N1CCC(n2c(=O)[nH]c3ccccc32)CC1` (stereo not given) is inactive: -1.04%; for `CCOC(=O)N1CCC(Nc2ccc(OC)cc2)CC1` it is inactive: 1.5%.
For `CC(C)(C)OC(=O)N1CCC(N(C(=O)c2ccccc2)c2ccc(F)cc2)CC1` the value was inactive: -1.11%; for `COc1ccc(C(=O)NCC2(N3CCCCC3)CCCCC2)c(OC)c1OC`, inactive: -4.33%; for `CCC(c1nnnn1C1CCCC1)N1CCC(n2c(=O)[nH]c3ccccc32)CC1` (stereo not given), inactive: -2.05%.
As to `COc1ccc(C(=O)NCC2(N3CCCCC3)CCCCC2)cc1`, the activation is inactive: -0.87%.
The figure for `O=C(NCC1(N2CCCCC2)CCCCC1)c1cccs1` is inactive: -0.39%; for `CCCCn1nnnc1C(CC)N1CCC(n2c(=O)[nH]c3ccccc32)CC1` (stereo not given) it is inactive: -4.13%.
The figure for `CCCCn1nnnc1C(c1cccs1)N1CCC(n2c(=O)[nH]c3ccccc32)CC1` (stereo not given) is inactive: -3.09%; for `O=C(NCC1(N2CCCCC2)CCCCC1)c1ccc(=O)[nH]c1` it is inactive: 0.11%; for `Cc1cccc(NC2(C#N)CCN(Cc3ccccc3)CC2)c1` it is inactive: 2.96%.
The figure for `CSc1ccccc1C(=O)NCC1(N2CCCCC2)CCCCC1` is inactive: -2%.
As for `O=c1[nH]c2ccccc2n1C1CCN(C(c2ccccc2)c2nnnn2C2CCCCC2)CC1` (stereo not given), the activation is inactive: 3.35%.
Consider `CCOC(=O)N1CCC(Nc2cccc(C)c2)CC1`, for which the activation is inactive: -0.31%.
For `COc1cc(C(=O)NCC2(N(C)C)CCCCC2)ccc1OC(F)F` the value was inactive: -2.38%; for `O=c1[nH]c2ccccc2n1C1CCN(C(c2cccc3ccccc23)c2nnnn2C2CCCC2)CC1` (stereo not given), inactive: 2.17%.
For `O=C1CCN(Cc2ccccc2)CC1` the value was inactive: 1%; for `CC(C)(C)n1nnnc1C(c1ccccc1)N1CCC(n2c(=O)[nH]c3ccccc32)CC1` (stereo not given), inactive: 1.29%.
The figure for `CCOc1ccc(C)cc1CN(CCCl)CCCl` is inactive: -1.3%.
With `COc1ccc(NC2CCN(CCc3ccccc3)CC2)c(OC)c1`, the activation is inactive: 0.63%.
The figure for `CCOC(=O)N1CCC(Nc2ccc(F)cc2)CC1` is inactive: -0.55%; for `O=P1(N(CCCl)CCCl)SCCCS1` it is inactive: 1.83%.
In the case of `CCCCn1nnnc1C(c1cc2ccccc2o1)N1CCC(n2c(=O)[nH]c3ccccc32)CC1` (stereo not given), the activation is inactive: -1.9%.
The figure for `CCCCOc1ccc(C(=O)NCC2(N3CCOCC3)CCCCC2)cc1` is inactive: 3.63%.
`O=C(NCC1(N2CCCCC2)CCCCC1)c1ccc(F)cc1`: the activation is inactive: 2.48%.
Take `CCN1CCC(Nc2cccc(F)c2)CC1`: the activation was inactive: 1.01%.
The figure for `COc1ccc(C(c2nnnn2C2CCCCC2)N2CCC(n3c(=O)[nH]c4ccccc43)CC2)cc1` (stereo not given) is inactive: 1.39%; for `CC(C)(C)n1nnnc1C(c1ccnc2ccccc12)N1CCC(n2c(=O)[nH]c3ccccc32)CC1` (stereo not given) it is inactive: 0.95%.
The figure for `Cc1ccccc1NC1(C#N)CCN(Cc2ccccc2)CC1` is inactive: -5.47%; for `CN(C)c1ccc(C(=O)NCC2(N3CCCCC3)CCCCC2)cc1` it is inactive: 1%; for `Cn1c(=O)[nH]cc(N(CCCl)CCCl)c1=O` it is inactive: -1.48%.
For `O=C(NCC1(N2CCCCC2)CCCCC1)c1ccco1`, the activation is inactive: 2.14%.
For `CCC(c1nnnn1C1CCCCC1)N1CCC(n2c(=O)[nH]c3ccccc32)CC1` (stereo not given) the value was inactive: -1.43%; for `COc1cccc(C(c2nnnn2C2CCCCC2)N2CCC(n3c(=O)[nH]c4ccccc43)CC2)c1OC` (stereo not given), inactive: -5.42%; for `CC(=O)N(c1ccccc1)C1CCNCC1`, inactive: -0.69%.
The figure for `COc1cc(OC)cc(C(=O)NCC2(N3CCCCC3)CCCCC2)c1` is inactive: -0.38%; for `O=c1[nH]c2ccccc2n1C1CCN(C(c2ccnc3ccccc23)c2nnnn2C2CCCCC2)CC1` (stereo not given) it is inactive: -2.93%; for `Fc1ccccc1NC1CCN(Cc2ccccc2)CC1` it is inactive: -0.57%.
The figure for `Cc1ccc(C(=O)NCC2(N3CCCCC3)CCCCC2)o1` is inactive: 2.96%.
Consider `Cc1ccc(NC2(C#N)CCN(Cc3ccccc3)CC2)cc1`, for which the activation is inactive: -0.38%.
For `COc1cccc(C(c2nnnn2C2CCCC2)N2CCC(n3c(=O)[nH]c4ccccc43)CC2)c1OC` (stereo not given) the value was inactive: 0.04%.
With `COc1cc(OC)cc(C(=O)NCC2(N3CCOCC3)CCCCC2)c1`, the activation is inactive: -1.27%.
For `COc1cccc(C(=O)N(c2cc(C)cc(C)c2)C2CCN(C(=O)OC(C)(C)C)CC2)c1` the value was inactive: -0.96%; for `CCC(CO)(C(=O)OC1CN2CCC1CC2)c1ccccc1` (stereo not given), inactive: -0.39%.
The figure for `CN1CCC(Nc2ccc(Cl)cc2)CC1` is inactive: -2.43%; for `CN1CCC(Nc2ccc(F)c(Cl)c2)CC1` it is inactive: 0.33%; for `CCOc1ncccc1C(=O)NCC1(N2CCOCC2)CCCCC1` it is inactive: -3.65%.
For `O=C(O)C1(Nc2ccccc2)CCN(Cc2ccccc2)CC1` the value was inactive: -0.55%; for `NN(c1ccccc1)C1CCN(CCc2ccccc2)CC1`, inactive: -0.55%; for `CC(C)(C)OC(=O)N1CCC(Nc2ccccc2)CC1`, inactive: -0.04%.
With `O=c1[nH]c2ccccc2n1C1CCN(C(c2cc3ccccc3o2)c2nnnn2C2CCCC2)CC1` (stereo not given), the activation was inactive: -2.98%.
For `CCCOc1ccc(C(=O)NCC2(N(C)C)CCCCC2)cc1` the value was inactive: 2.15%; for `CCOC(=O)N1CCC(Nc2ccc(C)cc2)CC1`, inactive: -1.3%; for `COc1cccc(C(c2nnnn2C(C)(C)C)N2CCC(n3c(=O)[nH]c4ccccc43)CC2)c1OC` (stereo not given), inactive: -3.39%.
Consider `N/C(=N\O)c1c(N)no[n+]1[O-]`, for which the activation was inactive: 1.49%.
As for `O=c1[nH]c2ccccc2n1C1CCN(C(c2cccs2)c2nnnn2C2CCCC2)CC1` (stereo not given), the activation was inactive: -2.9%.
For `O=C(OC1CN2CCC1CC2)C1c2ccccc2C=Cc2ccccc21` (stereo not given) the value was inactive: 1.42%.
Regarding `CCCCn1nnnc1C(c1cccc(OC)c1OC)N1CCC(n2c(=O)[nH]c3ccccc32)CC1` (stereo not given), the activation was inactive: -5.81%.
For `COc1cc(C(=O)NCC2(N3CCOCC3)CCCCC2)cc(OC)c1C` the value was inactive: 1.55%; for `CCCCn1nnnc1C(c1ccccc1)N1CCC(n2c(=O)[nH]c3ccccc32)CC1` (stereo not given), inactive: -3.77%; for `O=C(NCC1(N2CCOCC2)CCCCC1)c1cc(Br)ccc1Cl`, inactive: 5.07%.
For `NC(=O)C1(Nc2ccccc2)CCN(Cc2ccccc2)CC1` the value was inactive: 2.61%; for `O=c1[nH]c2ccccc2n1C1CCN(C(c2cccs2)c2nnnn2C2CCCCC2)CC1` (stereo not given), inactive: -5.33%.
The figure for `O=c1[nH]c2ccccc2n1C1CCN(C(c2ccnc3ccccc23)c2nnnn2C2CCCC2)CC1` (stereo not given) is inactive: -3.46%; for `COc1ccc(C(=O)NCC2(N3CCOCC3)CCCCC2)cc1OC` it is inactive: -2.51%.
Regarding `CN(C)C1(CNC(=O)c2cccc(C#N)c2)CCCCC1`, the activation was inactive: 0.97%.
Consider `Cc1cc(N(CCCl)CCCl)ccc1C=O`, for which the activation is inactive: -6.97%.
For `O=c1[nH]c2ccccc2n1C1CCN(C(c2ccccc2)c2nnnn2C2CCCC2)CC1` (stereo not given) the value was inactive: -0.88%; for `CCCN1CCC(Nc2cc(OC)cc(OC)c2)CC1`, inactive: 2.27%.
With `C/C(N)=N\P(=O)(Oc1ccccc1)Oc1ccccc1`, the activation is inactive: -1.3%.
The figure for `c1ccc(CN2CCC(Nc3ccccc3)CC2)cc1` is inactive: -2.53%.
The figure for `CC(C)(C)n1nnnc1C(c1cccc2ccccc12)N1CCC(n2c(=O)[nH]c3ccccc32)CC1` (stereo not given) is inactive: -3.51%.
The figure for `N#Cc1ccc(C(=O)NCC2(N3CCCCC3)CCCCC2)cc1` is inactive: -0.8%; for `CC(C)(C)OC(=O)N1CCC(N(C(=O)c2ccccc2)c2ccc(Cl)cc2)CC1` it is inactive: 0.68%.
